A short description of this assay: Selectivity ratio of IC50 for human PAH to IC50 for Legionella pneumophila PAH.

Each structure is given as a SMILES string.

As for `c1ccc2c(c1)CSc1sccc1C2n1ccnc1` (stereo unspecified), the Ratio IC50 was 200.

For the origin of these results see ChEMBL document CHEMBL3632587, “Discovery of a Specific Inhibitor of Pyomelanin Synthesis in Legionella pneumophila” (J Med Chem, 2015).
